Anti-infective test results gathered from many reports (values: NIAID ChemDB through PubChem).

All rows: whole-cell or culture tests

Percent inhibition refers to the dose given; in toxicity tests it is the harm to the cells. Lines come from different laboratories, so protocols vary. Fold resistance has wild type as its base.

{"SMILES": "O=C(NCCc1ccccc1)Nc1nc(C(F)(F)F)cs1", "method": "cytopathic effect / XTT", "tested at": "1 µg/mL", "endpoint": "inhibition", "organism": "HIV-2", "cell line": "MT-4", "result": "100%"}
{"SMILES": "Cc1cc(OCCCS(N)(=O)=O)ccc1NC(=O)COc1ccc(Cl)cc1C(=O)c1cc(F)cc(C(F)(F)F)c1", "strain": "HXB2", "method": "β-galactosidase", "endpoint": "fold resistance", "organism": "HIV-1", "cell line": "HeLa + HELA CD4+", "changes": "RT-G190E", "result": "~1"}
{"SMILES": "CC(=O)NC1C=CN(c2cn(CCP(=O)(O)O)nn2)C(=O)N1", "strain": "ROD", "tested at": "100 µM", "endpoint": "inhibition", "organism": "HIV-2", "cell line": "CEM", "result": "0%"}
{"SMILES": "Cc1cc(S(N)(=O)=O)ccc1NC(=O)COc1ccc(Cl)cc1C(=O)c1cc(Cl)cc(C#N)c1", "strain": "HXB2", "method": "β-galactosidase", "endpoint": "fold resistance", "organism": "HIV-1", "cell line": "HeLa + HELA CD4+", "changes": "RT-V106I Y181C", "result": "~10"}
{"SMILES": "N#Cc1csc(NC(=O)NCCc2ccccc2)n1", "method": "RT activity", "tested at": "10 µg/mL", "endpoint": "inhibition", "organism": "HIV-2", "cell line": "MT-4", "result": "94%"}
{"SMILES": "Cc1cc(C#N)cc(C(=O)c2cc(Cl)ccc2OCC(=O)Nc2ccc(S(N)(=O)=O)cc2C)c1", "strain": "Nevirapine-resistant (RT Y181C)", "method": "cytopathic effect / propidium iodide", "endpoint": "fold resistance", "organism": "HIV-1", "cell line": "MT-4", "changes": "RT-Y181C", "result": "~1"}
{"SMILES": "Nc1ncnc2c1ncn2Cc1cn(C(O)P(=O)(O)O)nn1", "strain": "ROD", "tested at": "100 µM", "endpoint": "inhibition", "organism": "HIV-2", "result": "0%"}
{"SMILES": "C/C=C/CSc1cc(NC(=S)c2ccsc2C)ccc1Cl", "strain": "NL4-3", "method": "p24", "endpoint": "fold resistance", "organism": "HIV-1", "cell line": "CEM + CEM-SS", "changes": "RT-V108I", "result": "2.5"}
{"SMILES": "Cc1cc(S(N)(=O)=O)ccc1NC(=O)COc1ccc(Cl)cc1C(=O)c1cccc(C#N)c1", "strain": "HXB2", "method": "β-galactosidase", "endpoint": "fold resistance", "organism": "HIV-1", "cell line": "HeLa + HELA CD4+", "changes": "RT-K101E", "result": "~1"}
{"SMILES": "C[n+]1cn(-c2cn(C(O)CCCP(=O)(O)O)nn2)c(=O)[nH]c1=O", "strain": "ROD", "tested at": "100 µM", "endpoint": "inhibition", "organism": "HIV-2", "cell line": "CEM", "result": "0%"}
{"SMILES": "O=C(NCCc1ccccc1)Nc1nc2c(Cl)cccc2s1", "method": "cytopathic effect / XTT", "tested at": "10 µg/mL", "endpoint": "inhibition", "organism": "HIV-1", "cell line": "MT-4", "result": "19%"}
{"SMILES": "Cc1cc(C)cc(C(=O)c2cc(Cl)ccc2OCC(=O)Nc2ccc(S(N)(=O)=O)cc2C)c1", "strain": "HXB2", "method": "β-galactosidase", "endpoint": "fold resistance", "organism": "HIV-1", "cell line": "HeLa + HELA CD4+", "changes": "RT-L100I", "result": "~1"}
{"SMILES": "CN1C(=O)[C@@H](Cc2ccccc2)NC1=S", "method": "RT activity", "tested at": "10 µg/mL", "endpoint": "inhibition", "organism": "HIV-2", "cell line": "MT-4", "result": "1%"}
{"SMILES": "Cc1cc(S(N)(=O)=O)ccc1NC(=O)COc1ccc(Cl)cc1C(=O)c1cc(F)cc(F)c1", "strain": "Nevirapine-resistant (RT Y181C)", "method": "cytopathic effect / propidium iodide", "endpoint": "fold resistance", "organism": "HIV-1", "cell line": "MT-4", "changes": "RT-Y181C", "result": "~1"}
{"SMILES": "Cc1nc(NC(=O)NCCc2ccccc2)sc1C", "method": "RT activity", "tested at": "0.1 µg/mL", "endpoint": "inhibition", "organism": "HIV-2", "cell line": "MT-4", "result": "1%"}
{"SMILES": "CCOP(=O)(Cn1cc(C2N=C3C(N)=NC=NC3N2C)nn1)OCC", "strain": "ROD", "tested at": "100 µM", "endpoint": "inhibition", "organism": "HIV-2", "cell line": "CEM", "result": "0%"}
{"SMILES": "CCCCN1C(=O)[C@@H](Cc2ccccc2)NC1=S", "method": "cytopathic effect / XTT", "tested at": "100 µg/mL", "endpoint": "inhibition", "organism": "HIV-2", "cell line": "MT-4", "result": "100%"}
{"SMILES": "C[n+]1cn(-c2cn(C(O)CP(=O)(O)O)nn2)c(=O)[nH]c1=O", "strain": "ROD", "tested at": "100 µM", "endpoint": "inhibition", "organism": "HIV-2", "cell line": "CEM", "result": "0%"}
{"SMILES": "O=C1[C@@H](Cc2ccccc2)NC(=S)N1c1ccccc1", "method": "cytopathic effect / XTT", "tested at": "100 µg/mL", "endpoint": "inhibition", "organism": "HIV-2", "cell line": "MT-4", "result": "80%"}
{"SMILES": "O=C(COc1ccc(Cl)cc1C(=O)c1cc2ccccc2o1)Nc1ccccc1", "strain": "Nevirapine-resistant (RT Y181C)", "method": "cytopathic effect / propidium iodide", "endpoint": "fold resistance", "organism": "HIV-1", "cell line": "MT-4", "changes": "RT-Y181C", "result": "~10"}
{"SMILES": "CCOP(=O)(CCCn1cc(C2N=C3C(N)=NC=NC3N2C)nn1)OCC", "strain": "ROD", "tested at": "100 µM", "endpoint": "inhibition", "organism": "HIV-2", "cell line": "CEM", "result": "0%"}
{"SMILES": "O=C(NCCc1ccccc1)Nc1nc2ccccc2s1", "method": "RT activity", "tested at": "0.1 µg/mL", "endpoint": "inhibition", "organism": "HIV-2", "cell line": "MT-4", "result": "1%"}
{"SMILES": "Cc1cc2[nH]cnc2cc1NC(=O)COc1ccc(Cl)cc1C(=O)c1cc(F)cc(C(F)(F)F)c1", "strain": "HXB2", "method": "β-galactosidase", "endpoint": "fold resistance", "organism": "HIV-1", "cell line": "HeLa + HELA CD4+", "changes": "RT-K101E", "result": "~1"}
{"SMILES": "CCOP(=O)(CC(O)n1cc(C2N=C3C(N)=NC=NC3N2C)nn1)OCC", "strain": "ROD", "tested at": "100 µM", "endpoint": "inhibition", "organism": "HIV-2", "result": "0%"}

Repeating the first 2 entries:

{"SMILES": "O=C(NCCc1ccccc1)Nc1nc(C(F)(F)F)cs1", "method": "cytopathic effect / XTT", "tested at": "1 µg/mL", "endpoint": "inhibition", "organism": "HIV-2", "cell line": "MT-4", "result": "100%"}
{"SMILES": "Cc1cc(OCCCS(N)(=O)=O)ccc1NC(=O)COc1ccc(Cl)cc1C(=O)c1cc(F)cc(C(F)(F)F)c1", "strain": "HXB2", "method": "β-galactosidase", "endpoint": "fold resistance", "organism": "HIV-1", "cell line": "HeLa + HELA CD4+", "changes": "RT-G190E", "result": "~1"}